Patent US20250170155A1, “NUCLEOSIDE DERIVATIVES AND PRODRUGS THEREOF HAVING VIRAL GROWTH INHIBITORY ACTION” (Shionogi & Co., Ltd., priority 2021, published 2025)

Assays:
[1] = tested on: influenza virus (A/WSN/33 (H1N1) strain); experiment: CPE suppression effect confirmation test (influenza virus, RPMI 2650 cells), antiviral activity; format: cell-based
[2] = tested on: SARS-CoV-2 (hCoV-19/Japan/TY/WK-521/2020 strain); experiment: CPE suppression effect confirmation test (SARS-CoV-2, Vero E6/TMPRSS2 cells), antiviral activity; format: cell-based

SMILES | Influenza SI (Selectivity Index) [1] | SARS-CoV-2 SI (Selectivity Index) [2]
Nc1ncnn2c([C@@H]3O[C@](F)(CO)[C@@H](O)C3(F)F)ccc12 [Compound I-008] | 61.6 | –
N/C(=N\O)c1cc([C@@H]2N[C@H](CO)[C@@H](O)[C@H]2O)n2ncnc(N)c12 [Compound I-016] | – | >318
CC1(C)O[C@@H]2[C@H](O1)[C@@H](CO)N[C@H]2c1cc(/C=N/O)c2c(N)ncnn12 [Compound I-018] | >472 | –
OC[C@H]1N[C@@H](c2ccc3c(NO)ncnn23)[C@H](O)[C@@H]1O [Compound I-020] | >24.8 | –
Nc1ncnn2c([C@@H]3N[C@H](CO)[C@@H](O)[C@H]3O)cc(O)c12 [Compound I-022] | >4.76 | 125
CC(C)(C)OC(=O)N1[C@H](CO)[C@@H](O)[C@@H](O)[C@@H]1c1cc(N)c2c(N)ncnn12 [Compound I-024] | 6.47 | 3.83
Cn1ccc(-c2cc([C@H]3[C@@H]4OC(C)(C)O[C@@H]4[C@@H](CO)N3C(=O)OC(C)(C)C)n3ncnc(N)c23)n1 [Compound I-030] | >65.4 | –
CC(O)c1cc([C@@H]2N[C@H](CO)[C@@H](O)[C@H]2O)c2ncnc(N)n12 (some centres unmarked) [Compound I-038] | >113 | –
N#C[C@@]1(c2c[nH]c3c(N)ncnc23)O[C@H](CO)[C@@H](O)[C@H]1O [Compound I-048] | – | >12.2

For some assays here: The source's definition of the ratio is not given here.
